Data source: PubChem BioAssay AID624099 (ICCB-Longwood, 2012)
Here is an unselected part of about 21,000 reagents tested. 497 of all reagents (2.4%) count as active. 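Higher z means weaker E2 silencing; only reporter increases were scored, and knock-downs that hurt cell survival may mask genuine repressor factors.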 Unmarked entries are inactive.

- Screen: 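Host factors E2 relies on to silence an HPV18 LCR reporter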 (primary screen)
- System: human C33A cervical carcinoma cells (HPV-negative) stably expressing BPV1 E2 and an HPV18 LCR luciferase reporter
- Reagents: siRNA pool against human genes, 40 nM
- Duration: 72 h
- Measured: 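HPV18 LCR reporter light per well, converted to plate-wise z-scores that exclude control wells, and averaged over triplicate plates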
- Direction: mean z-score and z-score: higher = stronger reporter signal, weaker E2 silencing
- Call rule: 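Hit if mean z-score reaches 2 and two or more of three replicate z-scores also reach 2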

The first 9 records as a preview:
no.	gene	mean z-score	z-score, replicate A	z-score, replicate B	z-score, replicate C
1	BCL3	-0.62	-0.76	-0.54	-0.57
2	MCM7	-1.14	-1.19	-1.23	-1
3	LINC00208	0.2	0.16	0.32	0.12
4	MRPL55	-0.17	0	-0.23	-0.28
5	LINC00921	-0.61	-0.42	-0.54	-0.88
6	EDA	0.55	0.41	0.52	0.71
7	SHPRH	-0.44	-0.4	-0.61	-0.3
8	TRPV1	-0.28	-0.29	-0.47	-0.07
9	MIR99AHG	-0.38	-0.43	-0.75	0.03

The list itself, from the first entry:
no.	gene	mean z-score	z-score, replicate A	z-score, replicate B	z-score, replicate C
1	BCL3	-0.62	-0.76	-0.54	-0.57
2	MCM7	-1.14	-1.19	-1.23	-1
3	LINC00208	0.2	0.16	0.32	0.12
4	MRPL55	-0.17	0	-0.23	-0.28
5	LINC00921	-0.61	-0.42	-0.54	-0.88
6	EDA	0.55	0.41	0.52	0.71
7	SHPRH	-0.44	-0.4	-0.61	-0.3
8	TRPV1	-0.28	-0.29	-0.47	-0.07
9	MIR99AHG	-0.38	-0.43	-0.75	0.03
10	SPIN2A	1.88	1.88	1.82	1.96
11	LOC402560 (retired record)	0.14	0.49	0	-0.08
12	HSPB2	0.19	0.38	0.1	0.09
13	RSPH9	0.58	0.76	0.7	0.27
14	PIGS	0.3	0.46	0.03	0.4
15	ASB4	0.19	0.26	0.35	-0.02
16	UMODL1	-0.69	-0.67	-0.72	-0.68
17	SLC16A9	0.12	0.21	0.2	-0.05
18	GPSM3	0.44	0.08	0.08	1.15
19	DENND4A	-1.56	-1.28	-1.83	-1.55
20	UPB1	-0.63	-0.28	-0.93	-0.68
21	PAK6	-0.96	-1.01	-0.92	-0.95
22	ZBTB38	1.28	1.63	1.04	1.18
23	CD93	0	0.02	0.24	-0.26
24	TPGS1	-1.33	-1.26	-1.2	-1.51
25	TRIM54	-0.5	-0.68	-0.24	-0.57
26	HTATSF1	-0.64	-1.21	-0.49	-0.23
27	SOCS3	-0.9	-1.04	-0.84	-0.83
28	IFI27L1	-0.54	-0.49	-0.57	-0.55
29	SYNJ2	0.54	0.35	0.47	0.79
30	KDELR1	1.18	1.16	1.3	1.08
31	WDR45B	0.98	0.94	1.11	0.88
32	MMAA	0.5	0.65	0.5	0.35
33	DROSHA	0.37	0.15	0.56	0.39
34	CHRNB1	0.11	0.09	0	0.24
35	TMEM38A	0.84	0.47	1.22	0.83
36	UNC13C	0.74	0.06	1.11	1.04
37	SURF1	1.69	1.15	1.97	1.95
38	NMS	-0.07	0.18	-0.08	-0.3
39	OR6V1	-0.54	-0.6	-1.05	0.03
40	PIK3R2	-0.99	-0.87	-0.87	-1.23
41	ZNF625	-2	-2.14	-1.86	-2
42	TMEM132A	1.07	1.22	1.44	0.55
43	ZNF784	-0.3	-0.62	0.09	-0.37
44	SGCB	0.27	0.27	0.28	0.25
45	PHYH	-1.35	-1.39	-1.2	-1.46
46	HIBADH	1.5	1.78	1.41	1.31
47	GIMAP5	1.24	0.87	1.55	1.28
48	TAF5	-1.44	-1.44	-1.5	-1.38
49	KRABD4	0.34	0.55	0.32	0.16
50	ABCF2	1.03	0.98	0.91	1.19
51	MIER2	-1.65	-1.44	-1.73	-1.78
52	RIN2	0.17	-0.03	0.13	0.42
53	RAB7A	0.85	0.62	0.95	0.99
54	EPHA6	2.72 (active)	2.96	2.99	2.22
55	PLEKHD1	-0.01	0.02	-0.08	0.04
56	B3GALT9	-0.18	-0.41	0.03	-0.18
57	VPS4A	0.12	0	0.38	-0.01
58	MAST3	3.13 (active)	2.16	4.07	3.17
59	RGS16	-1.09	-1.23	-1.21	-0.82
60	TXK	-0.5	-0.19	-0.71	-0.6
61	RAB27B	-0.84	-0.58	-0.98	-0.97
62	SLC35D4	0.73	0.66	0.93	0.61
63	FAM234B	-0.32	-0.34	-0.12	-0.51
64	MROH2B	1.77	1.9	1.58	1.82
65	TNPO2		-0.3	-0.53	
66	LOC387821 (retired record)	-0.53	-0.74	-0.34	-0.5
67	OR4K5	0.54	0.18	0.71	0.72
68	CCDC127	1.62	1.4	1.95	1.51
69	CLDN18	1.31	1.47	1.35	1.1
70	JPH1	-0.15	-0.58	0.46	-0.33
71	RAD23A	-0.91	-1.06	-0.93	-0.74
72	ACKR3	0.16	0.19	0.28	0
73	NAPEPLD	1.15	1.49	0.94	1.02
